Values from PubChem BioAssay AID624099 (ICCB-Longwood, 2012).
Assay: 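Knock-downs relieving repression by E2 of an HPV18 LCR luciferase reporter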 (primary screen). Cell system: human C33A cervical carcinoma cells (HPV-negative) stably expressing BPV1 E2 and an HPV18 LCR luciferase reporter. Knock-down reagent: siRNA pool against human genes, 40 nM. Duration: 72 h. Detection: 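Per-well luciferase luminescence, z-scored on each plate against the plate mean and SD with control wells left out, then averaged across three replicate plates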. Reading the numbers: mean z-score and z-score: higher = stronger reporter signal, weaker E2 silencing. Rule for the call: 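Hit if mean z-score reaches 2 and two or more of three replicate z-scores also reach 2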.
This is one part, drawn at random, of about 21,000 deposited reagents. Of all reagents, 497 (2.4%) got an active call. 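Higher z means weaker E2 silencing; only reporter increases were scored, and knock-downs that hurt cell survival may mask genuine repressor factors.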 Unmarked entries are inactive.

gene symbol | mean z-score | z-score, replicate A | z-score, replicate B | z-score, replicate C
CEBPA-DT (CEBPA divergent transcript) | -0.88 | -0.88 | -0.9 | -0.87
RPS16 (ribosomal protein S16) | -1.97 | -1.87 | -1.82 | -2.2
UNC13B (unc-13 homolog B) | 0.48 | 0.34 | 0.83 | 0.28
FANCC (FA complementation group C) | -0.3 | -0.2 | -0.35 | -0.36
LOC400987 (retired record) | 0.61 | 0.43 | 0.6 | 0.8
FABP5 (fatty acid binding protein 5) | -0.88 | -0.98 | -0.96 | -0.69
MYL12BP2 (MYL12B pseudogene 2) | 0.05 | 0.43 | -0.12 | -0.17
ZSCAN29 (zinc finger and SCAN domain containing 29) | -1.35 | -1.4 | -1.57 | -1.07
COPRS (coordinator of PRMT5 and differentiation stimulator) | 0.95 | 1.07 | 0.82 | –
PIGM (phosphatidylinositol glycan anchor biosynthesis class M) | 1.13 | 1.05 | 1.02 | 1.32
OLIG2 (oligodendrocyte transcription factor 2) | 0.53 | 0.41 | 0.81 | 0.36
ANKRD13A (ankyrin repeat domain 13A) | 0.12 | -0.02 | 0.01 | 0.37
SLC2A12 | -0.01 | -0.06 | -0.18 | 0.21
SCLT1 (sodium channel and clathrin linker 1) | -0.61 | -0.56 | -0.54 | -0.74
DNM3 (dynamin 3) | 0.58 | 0.55 | 0.25 | 0.93
CNGA1 (cyclic nucleotide gated channel subunit alpha 1) | 0.5 | 0.5 | 0.38 | 0.63
IFITM5 (interferon induced transmembrane protein 5) | 0.44 | 0.69 | -0.1 | 0.74
KCNB1 (potassium voltage-gated channel subfamily B member 1) | -0.26 | 0.01 | -0.19 | -0.61
LOC389656 (retired record) | -0.25 | -0.36 | -0.2 | -0.19
NPPC (natriuretic peptide C) | 0.46 | 0.54 | 0.7 | 0.12
GOLGA8F (golgin A8 family member F) | -0.35 | -0.7 | -0.37 | 0.02
COASY (Coenzyme A synthase) | 1.15 | 1.95 | 0.71 | 0.8
ST14 (ST14 transmembrane serine protease matriptase) | -2.17 | -2.12 | -2.42 | -1.98

A portion taken from the entries so far, for reference:
gene symbol | mean z-score | z-score, replicate A | z-score, replicate B | z-score, replicate C
ZSCAN29 (zinc finger and SCAN domain containing 29) | -1.35 | -1.4 | -1.57 | -1.07
COPRS (coordinator of PRMT5 and differentiation stimulator) | 0.95 | 1.07 | 0.82 | –
PIGM (phosphatidylinositol glycan anchor biosynthesis class M) | 1.13 | 1.05 | 1.02 | 1.32
